For series [1], the system named is Nc1nc2c(ncn2[C@@H]2O[C@H](COP(=O)(O)OP(=O)(O)O)[C@@H](O)[C@H]2O)c(=O)[nH]1. The series can be described thus: purified protein. The settings on record: pH 7.2.
The subject of series [2] is Nc1nc2c(ncn2[C@@H]2O[C@H](COP(=O)(O)OP(=O)(O)OP(=O)(O)O)[C@@H](O)[C@H]2O)c(=O)[nH]1. As to the kind of experiment: purified protein. The settings on record: pH 7.2.

The term Km denotes the substrate concentration at which the rate is half of its maximum.

On to (Mycobacterium tuberculosis H37Rv), for which the Km in series [1] is 66.6 ± 8.0 µM; in series [2], 180.8 ± 33.7 µM.
